Anti-infective test results gathered from many reports (values: NIAID ChemDB through PubChem).

Common to all: toxicity to cultured cells; cell line: HepG2; endpoint: CC50

a–b is a range or a potency band.

smiles,method,value
CC(C)N(Cc1cccc(OCCCCCC(=O)OC(=O)O)c1)C(=O)c1ccc(-c2ccc(Cl)c(Cl)c2)cc1,,>20 µM
Cc1cc(NC(=O)c2c(C)c(C(=O)C(=O)NCC(C)(C)O)n(C)c2C2CCCC2)ccc1F,MTT,>30 µM
CCc1ccc([C@H]2C[C@@H](C(F)(F)F)n3ncc(C(=O)NCc4ccc(OC)cc4)c3N2)cc1,resazurin,>25 µM
COC(=O)c1c2c(c3ccccc3c1O)OC(C)(C)CC2,MTT,6.25 µg/mL
CC(N[C@H]1CS(=O)(=O)C[C@@H]1S(=O)(=O)c1ccc(F)cc1)c1ccccc1,MTT,>80 µg/mL
COc1cccc(CNCCCNc2ccnc3cc(Cc4ccccc4)ccc23)c1O,fluorescence,5.72 µM
CC(C)N(Cc1cccc(OCCCCCC(=O)OC(=O)O)c1)C(=O)c1ccc(-c2cccc(OC(F)(F)F)c2)cc1,,>20 µM
COc1ccc2nc(N3CCC(c4nc(-c5cccnc5)no4)CC3)ccc2c1,MTS,>100 µM
CCC/C=C/C=C/c1nc2cccc(OC)c2n2cccc12,MTT / absorbance,17.4 µM
Cc1c(C(=O)Nc2ccc(F)cc2)c(C)n(C)c1C(=O)C(=O)NC1(C)CCC(O)CC1,MTT,>30 µM
CC(C)N(Cc1cccc(OCCCCCC(=O)OC(=O)O)c1)C(=O)c1ccc(-c2cccc(S(C)(=O)=O)c2)cc1,,>20 µM
O=C(Oc1ccc(Br)cc1C(=O)Nc1ccc(C(F)(F)F)cc1)c1cnccn1,,8.02 µM
COc1cccc2ccc(N3CCC(c4nc(-c5ccc(N6CCNCC6)nc5)no4)CC3)nc12,MTS,<20 µM
CC(=O)N1CC[C@@H](NC(=O)C(=O)c2c(C)c(C(=O)Nc3ccc(F)c(C)c3)c(C)n2C)C(C)(C)C1,MTT,>30 µM
COc1cccc2ccc(N3CCC(c4nc(-c5ccc(Cl)nc5)no4)CC3)nc12,MTS,20–50 µM
C=CCCCC(=O)NCC(c1ccc2c(c1)OCO2)C1OCCO1,,>20 µM
CCCC/C=C/C=C/c1nc2ccccc2n2cccc12,MTT / absorbance,8.2 µM
COc1ccc(CCNC(=O)CCCCC(C)=O)cc1OC,,<7.5 µM
CCCCCC[C@H](C)CC1=C(O)c2cccc(C)c2C(=O)C1=O,MTT,2.48 µM
Fc1ccc(Oc2ccc3c(NCCCNCc4ccco4)ccnc3c2)cc1,fluorescence,16 µM
COc1cccc2ccc(N3CCC(c4nc(-c5ccc(O)cc5)no4)CC3)nc12,MTS,>100 µM
Nc1nc2c(ncn2[C@@H]2C[C@@H](F)[C@H](CO)O2)c(=O)[nH]1,,>200 µM
Cc1c(C(=O)NC2COCCOC2)c(C)n(C)c1C(=O)C(=O)NC(C)(C)C,MTT,>30 µM
CCC/C=C/C=C/c1nc2cc(OC)ccc2n2cccc12,MTT / absorbance,8.8 µM
O=C1C(=O)c2ccccc2C(O)=C1C1CCC(c2ccc(Cl)cc2)CC1,MTT,38.4 µM
COc1cccc(CNCCCNc2ccnc3cc(CC4CCCCC4)ccc23)c1O,fluorescence,0.97 µM
COC(=O)c1c(CC=C(C)C)c(O)c2ccccc2c1O,MTT,6.25 µg/mL
Cc1cc(NC(=O)c2c(C)c(C(=O)C(=O)NC3CCC(S(C)(=O)=O)CC3)n(C)c2C2CC2)ccc1F,MTT,>30 µM
COc1cccc(CNCCCNc2ccnc3cc(Cc4ccc(C#N)cc4)ccc23)c1O,fluorescence,7.15 µM
CCOC(=O)CCCCCOc1cccc(CN(C(=O)c2ccc(-c3ccc(Cl)c(Cl)c3)cc2)C(C)C)c1,,>20 µM
CC(=O)Oc1c(C(=O)Oc2ccccc2)c2c(c3ccccc13)OC(C)(C)CC2,MTT,12.5 µg/mL
CC[C@H]1OC(=O)[C@H](C)[C@@H](O[C@H]2C[C@@](C)(OC)[C@@H](O)[C@H](C)O2)[C@H](C)[C@@H](O[C@@H]2O[C@H](C)C[C@H](N(C)CCCNC(=O)CCCNc3ccnc4cc(Cl)ccc34)[C@H]2O)[C@](C)(O)C[C@@H](C)CN(C)[C@H](C)[C@@H](O)[C@]1(C)O,MTS,>50 µM
CC(=O)Oc1c(C(=O)OCc2ccccc2)c2c(c3ccccc13)OC(C)(C)CC2,MTT,25 µg/mL
COc1cccc2ccc(N3CCC(c4nc(-c5cccnc5)no4)CC3)nc12,MTS,50–100 µM
O=C(Oc1ccc(Cl)cc1C(=O)Nc1ccc(Cl)c(Cl)c1)c1cnccn1,,3.16 µM
CC[C@H]1OC(=O)[C@H](C)[C@@H](O)[C@H](C)[C@@H](O[C@@H]2O[C@H](C)C[C@H](N(C)CCCNC(=O)CCCNc3ccnc4cc(Cl)ccc34)[C@H]2O)[C@](C)(O)C[C@@H](C)CN(C)[C@H](C)[C@@H](O)[C@]1(C)O,MTS,>50 µM
CC(C)N(Cc1cccc(OCCCCCC(=O)OC(=O)O)c1)C(=O)c1ccc(-c2ccc3cc[nH]c3c2)cc1,,>20 µM
Cc1cc(NC(=O)c2c(C)c(C(=O)C(=O)NC3(C)CC(O)C3)n(C)c2C2CCCC2)ccc1F,MTT,>30 µM
COc1cccc2ccc(N3CCC(c4nc(-c5ccc(N6CCCC6)nc5)no4)CC3)nc12,MTS,>100 µM
COc1ccc(-c2ccc3c(NCCCNCc4cccc(OC)c4O)ccnc3c2)cc1,fluorescence,1.6 µM
O=C(Oc1ccc(Cl)cc1C(=O)Nc1ccc(C(F)(F)F)cc1)c1cnccn1,,1.66 µM
COc1cccc2ccc(N3CCC(c4nc(-c5ccc(C(F)(F)F)cc5)no4)CC3)nc12,MTS,7.8–15.6 µM

Repeating the final 6 entries:

smiles	method	value
CC(C)N(Cc1cccc(OCCCCCC(=O)OC(=O)O)c1)C(=O)c1ccc(-c2ccc3cc[nH]c3c2)cc1		>20 µM
Cc1cc(NC(=O)c2c(C)c(C(=O)C(=O)NC3(C)CC(O)C3)n(C)c2C2CCCC2)ccc1F	MTT	>30 µM
COc1cccc2ccc(N3CCC(c4nc(-c5ccc(N6CCCC6)nc5)no4)CC3)nc12	MTS	>100 µM
COc1ccc(-c2ccc3c(NCCCNCc4cccc(OC)c4O)ccnc3c2)cc1	fluorescence	1.6 µM
O=C(Oc1ccc(Cl)cc1C(=O)Nc1ccc(C(F)(F)F)cc1)c1cnccn1		1.66 µM
COc1cccc2ccc(N3CCC(c4nc(-c5ccc(C(F)(F)F)cc5)no4)CC3)nc12	MTS	7.8–15.6 µM

Conditions beyond the fields shown may differ between rows. Blank or dashed fields: not listed here. CCn: concentration that lowers growth or viability of the cells by n%.